Test results as given in patent US20110059962A1, “TRANSCRIPTION FACTOR MODULATING COMPOUNDS AND METHODS OF USE THEREOF” (priority 2009, published 2011).

Molecular target: T1, ExsA (Pseudomonas aeruginosa) (UniProt P26993)
T1 sequence (looked up, limits assumed): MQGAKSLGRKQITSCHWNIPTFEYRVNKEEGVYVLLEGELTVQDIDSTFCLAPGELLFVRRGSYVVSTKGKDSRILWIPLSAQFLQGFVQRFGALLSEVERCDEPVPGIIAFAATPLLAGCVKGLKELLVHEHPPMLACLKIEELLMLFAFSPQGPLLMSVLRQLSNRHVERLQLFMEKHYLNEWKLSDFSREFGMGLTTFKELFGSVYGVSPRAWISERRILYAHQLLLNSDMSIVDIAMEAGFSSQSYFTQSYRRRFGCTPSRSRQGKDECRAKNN
Assay: binding assay
Details: chemiluminescence plate assay, 20 nM protein, 2 nM DNA; binding inhibited by compounds; DNA sequence given only in Example 12; purified recombinant protein; protein details: 6xHis

“CCGATTTAGCAAAACGTCGCATCGGTC (double strand) [biotinylated target dsDNA]”: binds.

For at least one entry, the source does not settle the construct or the ends of the probe. Where a protein sequence is shown, tags need not be part of it.
